Measured values from several laboratories, pooled; numbers as filed in NIAID ChemDB.

Shared fields: whole-cell or culture tests; organism: Herpes simplex virus 1

Lines come from different laboratories, so protocols vary.

| smiles | cell line | strain or isolate | tested at | read by | measure | value |
|---|---|---|---|---|---|---|
| COCc1cn([C@H]2C[C@H](O)[C@@H](CO)O2)c(=O)[nH]c1=O | RK-13 | PFA-resistant | - | plaque count | EC50 | 9 µM |
| O=C(NCc1ccc(Cl)cc1)c1cn2c3c(cc(CN4CCOCC4)cc3c1=O)OC(c1cccnc1)C2 | HFF | PAA/R acyclovir-resistant | - | plaque count | EC50 | 0.9 µM |
| Cc1c(NC(=O)CCNC(=O)OCc2ccccc2)ccc2nc(NC(C)(C)C(=O)N(C)CCc3ccccn3)oc(=O)c12 | VERO | - | - | plaque count | EC90 | >12.5 µM |
| Cc1ccccc1Cn1cnc(=N)c2[nH]cnc21 | BSC-1 | - | 25 µg/mL | plaque count | inhibition | 0% |
| O=c1[nH]c(=O)n([C@H]2C[C@H](O)[C@@H](CO)O2)cc1I | - | VR-3 | - | - | MIC | 3.2 µg/mL |
| O=c1[nH]c(=O)n([C@@H]2O[C@H](CO)[C@@H](O)[C@@H]2O)cc1/C=C/Br | VERO | C42 | 10 µM | plaque count | inhibition | >90% |
| O=c1[nH]c(=O)n([C@H]2C[C@H](O)[C@@H](CO)O2)cc1/C=C/Br | PRK | KOS | - | virus yield | EC99 | 0.008 µg/mL |
| Cn1cc(C(=O)NCc2ccc(Cl)cc2)c(=O)c2cc(CN3CCOCC3)ccc21 | HFF | B-2006 (acyclovir-resistant) | - | plaque count | EC50 | 4.2 µM |
| Cc1c(NC(=O)OC(C)(C)C)ccc2nc(N3CCCC[C@H]3C(=O)NCc3ccncc3)oc(=O)c12 | VERO | - | - | plaque count | EC90 | >12.5 µM |
| Cc1cn([C@@H]2O[C@H](CO)[C@@H](O)[C@@H]2O)c(=O)[nH]c1=O | - | WT-34 | - | - | MIC | 1 µg/mL |
| C/C=C/c1cn([C@H]2C[C@H](O)[C@@H](CO)O2)c(=O)[nH]c1=O | PRK | B2006 (TK-) | - | virus yield | EC99 | >100 µg/mL |
| C/C=C/c1cn([C@H]2C[C@H](O)[C@@H](CO)O2)c(=O)[nH]c1=O | VERO | KJ502 | 1 µM | plaque count | inhibition | 33% |
| Nc1nc2c(ncn2COC(CO)CO)c(=O)[nH]1 | WI-38 | SC16 (mutant B3) | 0.5 µM | plaque count | inhibition | 90% |
| CCc1cn([C@H]2C[C@H](O)[C@@H](CO)O2)c(=O)[nH]c1=O | - | WT-20 | - | - | MIC | 320 µg/mL |
| Nc1nc2c(ncn2COCCO)c(=O)[nH]1 | HFF | 15616SC16 (acyclovir-susceptible) | - | cytopathic effect | EC50 | 0.5 µg/mL |
| Nc1nc2c(ncn2COCCO)c(=O)[nH]1 | HL | VL8737 | 5 µg/mL | virus yield | inhibition | 38% |
| N=c1ncn(Cc2ccco2)c2nc[nH]c12 | BSC-1 | - | 12 µg/mL | plaque count | inhibition | 0% |
| Nc1nc2c(ncn2CCCC(CO)CO)c(=O)[nH]1 | VERO | C42 | - | plaque count | EC50 | 0.3 µM |
| Cc1c(NC(=O)OC(C)(C)C)ccc2nc(N(C)CC(=O)N(C)CCc3ccccn3)oc(=O)c12 | VERO | - | - | plaque count | EC90 | >20 µM |
| CCCCn1cnc(=N)c2[nH]cnc21 | BSC-1 | - | 6 µg/mL | plaque count | inhibition | 0% |
| CCN(C(=O)N(C)CCc1cccnc1)c1nc2ccc(NC(=O)OC(C)(C)C)c(C)c2c(=O)o1 | VERO | - | - | plaque count | EC90 | 7.6 µM |
| Nc1nc2c(ncn2COC(CO)CO)c(=O)[nH]1 | VERO H | 5538 (DRUG-resistant) | - | plaque count | EC50 | 4.39 µM |
| COCc1cn([C@@H]2O[C@H](CO)[C@@H](O)[C@@H]2O)c(=O)[nH]c1=O | - | VR-3 | - | - | MIC | 100 µg/mL |
| Cc1c(NC(=O)OC(C)(C)C)ccc2nc(N3CCCC3(OCc3ccccc3)C(=O)N(C)CCc3cccnc3)oc(=O)c12 | VERO | - | - | plaque count | EC90 | 6.1 µM |
| Nc1ccn([C@@H]2O[C@H](CO)[C@@H](O)[C@@H]2O)c(=O)n1 | - | FORD | - | - | MIC | 4.4 µg/mL |
| CCN(C(=O)C(C)(C)Nc1nc2ccc(NC(=O)OC(C)(C)C)c(C)c2c(=O)o1)c1cccnc1 | VERO | - | - | plaque count | EC90 | >12.5 µM |
| Nc1nc2c(ncn2CCC(CO)CO)c(=O)[nH]1 | MRC-5 | SC16 | - | virus yield | EC99 | 0.6 µg/mL |

Inhibition is in % at the dose shown (toxicity tests: loss of growth or viability). Blank or dashed fields: not listed here. ECn: concentration that inhibits the pathogen or its effect by n%.